Paper PMC8532962 (Antibiotics, 2021)

Tested on: Histoplasma capsulatum G217B
Conditions: 96 h

Compound	MIC Hc
CC[C@H](C)[C@H](NC(=O)[C@H](CC(=O)O)NC(=O)[C@@H](N)Cc1ccccc1)C(=O)N[C@@H](CC[S+](C)[O-])C(=O)NCC(=O)N[C@@H](CC(C)C)C(=O)N[C@H](C(=O)N[C@@H](CCCCN)C(=O)N[C@@H](CCCCN)C(=O)N[C@H](C(=O)N[C@@H](C)C(N)=O)C(C)C)[C@@H](C)CC (some centres unmarked) [EMP-ER-C3]	>256 µg/mL
CC[C@H](C)[C@H](NC(=O)[C@H](CC(=O)O)NC(=O)[C@@H](N)Cc1ccccc1)C(=O)N[C@@H](CC[S+](C)[O-])C(=O)NCC(=O)N[C@@H](CC(C)C)C(=O)N[C@H](C(=O)N[C@@H](CCCCN)C(=O)N[C@@H](CCCCN)C(=O)N[C@H](C(=O)N[C@@H](C)C(=O)NCC(=O)N[C@@H](C)C(=O)N[C@@H](CC(C)C)C(N)=O)C(C)C)[C@@H](C)CC (some centres unmarked) [EMP-ER-OR]	>256 µg/mL
